Pooled drug test results. Numbers come from NIAID ChemDB, via PubChem.

Shared fields: tests in culture; organism: HIV-1

Lines come from different laboratories, so protocols vary.

SMILES,strain,setting,read by,cells,endpoint,changes,result
CC1(C)[C@@H](O[C@H]2O[C@H](C(=O)O)[C@@H](O)[C@H](O)[C@H]2O[C@@H]2O[C@H](C(=O)O)[C@@H](O)[C@H](O)[C@H]2O)CC[C@]2(C)[C@H]3C(=O)C=C4[C@@H]5C[C@@](C)(C(=O)O)CC[C@]5(C)CC[C@@]4(C)[C@]3(C)CC[C@@H]12,,,RT activity,MT-4,EC50,,178 µM
COC(=O)[C@H](C)NP(=O)(OC[C@@H]1CC[C@H](n2cnc3c(N)ncnc32)O1)Oc1ccccc1,IIIB,,syncytia,MT-4,EC50,,0.01 µM
CC(C)Nc1cccnc1N1CCN(C(=O)c2cc3cc(NS(C)(=O)=O)ccc3[nH]2)CC1,IIIB,,cytopathic effect,CEM,EC50,RT-Y181C,0.25 µg/mL
Nc1nc(Nc2cccc3ccccc23)c2ncn(CCOCP(=O)(O)O)c2n1,IIIB,,cytopathic effect / MTT,CEM,EC50,,>100 µg/mL
CCN[C@H]1CO[C@@H]2OCC[C@H](OC(=O)N[C@@H](Cc3ccccc3)[C@H](O)CN(CC(C)C)S(=O)(=O)c3ccc4nc(NC5CC5)sc4c3)[C@@H]21,NL4-3,,p24 / luminescence,MT-4,EC50,L10I I54V K20R L24I V32I L33F M36I M46I I54M L63P K70Q V82I I84V L89M,0.062 µM
Nc1cc(S(=O)(=O)c2ccccc2)nc(Cl)n1,IIIB,,cytopathic effect / MTT,MT-4,EC50,,>10 µM
COC(=O)N[C@H](C(=O)N[C@@H](Cc1ccccc1)[C@@H](O)CN(Cc1ccc(-c2ccccn2)cc1)NC(=O)[C@@H](NC(=O)OC)C(C)(C)C)C(C)(C)C,NL4-3,,p24 / luminescence,MT-4,EC50,L23I E34Q K43I M46I I50L G51A L63P A71V V82A T91A,>1 µM
Nc1ccn([C@H]2CC[C@@H](CO)O2)c(=O)n1,RF,,p24,C8166,EC50,,0.9 µM
Cc1cn([C@H]2C[C@H](N=[N+]=[N-])[C@@H](CO)O2)c(=O)[nH]c1=O,205,,cytopathic effect / XTT,CEM + CEM-SS,EC50,,0.016 µM
CCN[C@H]1CO[C@@H]2OCC[C@H](OC(=O)N[C@@H](Cc3cccc(OC)c3)[C@H](O)CN(CC(C)C)S(=O)(=O)c3ccc4nc(NC(C)C)sc4c3)[C@@H]21,NL4-3,,p24 / luminescence,MT-4,EC50,,0.0035 µM
CO[P@](=O)(c1cc(C)cc(/C=C/C#N)c1)c1c(C(N)=O)[nH]c2ccc(Cl)c(F)c12,BH10,,,MT-2,EC50,,0.0009 µM
Nc1ccn([C@H]2CO[C@@H](CO)S2)c(=O)n1,IIIB,,p24,MT-4,EC50,,2.8 µM
C[C@H](CC1CNC2C(N)=NC(N)NC12)OCP(=O)(O)O,IIIB,,cytopathic effect / MTT,CEM,EC50,,50 ± 14 µg/mL
Cc1cn([C@H]2C[C@H](N=[N+]=[N-])[C@@H](CO)O2)c(=O)[nH]c1=O,NI-10.93 (HXB2 RT T69N K70R Q151M),,cytopathic effect,MT-4,EC50,RT-T69N K70R Q151M,0.628 µM
Nc1nc2c(ncn2[C@H]2CO[C@@H](CO)O2)c(=O)[nH]1,,,,MT-2,EC50,RT-M41L K70R T215Y K219Q,0.22 µM
Cc1cn([C@H]2C=C[C@@H](CO)O2)c(=O)[nH]c1=O,BI-12.96 (HXB2(RT-A62V S68G T69D V75I F77L F116Y Q151M)),,cytopathic effect,MT-4,EC50,RT-A62V S68G T69D V75I F77L F116Y Q151M,>6 µM
C#C[C@@]1(CO)C=C[C@H](n2cc(C)c(=O)[nH]c2=O)O1,HXB2,,β-galactosidase,MAGI (CCR5) + MAGI,EC50,RT-A62V V75I F77L F116Y Q151M,1.1 µM
Cc1c(O)cccc1C(=O)N[C@@H](CSc1ccccc1)[C@H](O)CN1C[C@H]2CCCC[C@H]2C[C@H]1C(=O)NC(C)(C)C,NL4-3 B,,cytopathic effect / MTT,MT-4,EC50,,0.0483 µM
CCC(C)Oc1cc(=O)[nH]c(Sc2cccc(Cl)c2)n1,IIIB,,cytopathic effect / MTT,MT-4,EC50,,45 µM
CC(C)=CCOc1cc(NC(=S)c2ccsc2C)ccc1Cl,IIIB,,cytopathic effect,CEM,EC50,RT-K103N,0.02 µg/mL
Cc1cn([C@H]2C=C[C@@H](CO)O2)c(=O)[nH]c1=O,IIIB,,cytopathic effect / MTT,MT-4,EC50,,0.31 µM
O=S(=O)(c1ccccc1)c1ccccc1,NSC667952-RS,,XTT,CEM + CEM-SS,EC50,,93.3 µM
CC[C@H](C)[C@@H](C(=O)O)n1sc2ccccc2c1=O,BR /93/020,,p24 / RT activity,PBMC,EC50,,9.5 µM
Cc1cn([C@H]2C[C@H](N=[N+]=[N-])[C@@H](CO)O2)c(=O)[nH]c1=O,A012D,,plaque count,HT4 + HT4-6C,EC50,,1.03 µM
CCc1cc(NCc2nc3c(Cl)ccc(Cl)c3o2)c(=O)[nH]c1C,IIIB,,p24,H9,EC95,,0.2 µM
Nc1ncnc2c1ncn2[C@H]1C=C[C@@H](CO)O1,IIIB,,syncytia,C8166,EC50,,>50 µM
Cc1cc(S(N)(=O)=O)ccc1NC(=O)COc1ccc(Cl)cc1C(=O)c1cc(Cl)cc(C#N)c1,NNRTI-resistant (RT K103N L100I),,β-galactosidase,MAGI,EC50,RT-K103N L100I,0.0015 µM
CC(C)CCC[C@@H](C)[C@H]1CC[C@H]2[C@@H]3CC[C@H]4C[C@@H](CCC=C(c5cc(Cl)c(O)c(C(=O)O)c5)c5cc(Cl)c(O)c(C(=O)O)c5)CC[C@]4(C)[C@H]3CC[C@]12C,RF,,p24 / RT activity,CEMx174 + CEM,EC50,,6.1 µM
Cc1ccnc2c1NC(=O)c1cccnc1N2C1CC1,IIIB,,syncytia,CEM,EC50,RT-V106A,≥5 µM
CC(C)CN(C[C@@H](O)[C@H](Cc1ccccc1)NC(=O)O[C@H]1CCOC1)S(=O)(=O)c1ccc(N)cc1,Clinical isolate,"clinical isolate, multidrug-resistant",p24 / luminescence,PBMC,EC50,L10I I15V K20R L24I M36I M46L I54V I62V L63P K70Q V82A L89M,0.41 µM
CC[C@H](C)[C@H](NC(=O)[C@H](C(C)C)[C@@H](O)[C@H](O)[C@H](CC1CCCCC1)NC(=O)[C@H](Cc1cnc[nH]1)NC(=O)COc1cccc2ccccc12)C(=O)NCc1ccccn1,IIIB,,p24,H9,EC90,,0.8 µM
Nc1ccn([C@H]2CC[C@@H](CO)O2)c(=O)n1,NL4-3,,,MT-2,EC50,INTG-G140S,0.025 µM
CCc1cc(NCc2nc3c(C)ccc(C)c3o2)c(=O)[nH]c1C,rHXB2,,p24,MT-4,EC95,,0.05 µM
Cc1cn([C@H]2C[C@H](N=[N+]=[N-])[C@@H](COP(=O)(OCCSC(=O)C(C)(C)C)OCCSC(=O)C(C)(C)C)O2)c(=O)[nH]c1=O,,,cytopathic effect / MTT,CEM + CEM TK-,EC50,,0.45 µM
Cc1ccnc2c1NC(=O)c1cccnc1N2C1CC1,NL4.3-XCS,,β-galactosidase,HeLa CD4,EC50,M184V (3TC-resistant),0.044 µM
CC(C)(C)NC(=O)[C@@H]1CN(Cc2cccnc2)CCN1C[C@@H](O)C[C@@H](Cc1ccccc1)C(=O)N[C@H]1c2ccccc2C[C@H]1O,NL4-3 PR-S12T I15V I19L M36I R41K H69K L89M I93L CLONE 6( C ),,cytopathic effect / MTT,MT-4,EC50,,0.0064 µM
CC(C)CN(C[C@@H](O)[C@H](Cc1ccccc1)NC(=O)O[C@H]1CCO[C@H]2OCC[C@H]21)S(=O)(=O)c1ccc2nc(NC3CC3)sc2c1,NL4-3,,p24 / luminescence,MT-4,EC50,L23I E34Q K43I M46I I50L G51A L63P A71V V82A T91A,0.0002 µM
Cc1cn([C@H]2C[C@H](F)[C@@H](CO)O2)c(=O)[nH]c1=O,121-2(PRE-AZT),,RT activity,MT-4,EC50,,0.005 µM
O=S(=O)(c1ccccc1)c1ccccc1,IIIB,,cytopathic effect / XTT,CEM + CEM-SS,EC50,,0.65 µM
Cc1cn([C@H]2C[C@H](N=[N+]=[N-])[C@@H](CO)O2)c(=O)[nH]c1=O,XM-Q151M,,p24,MT-4,EC90,RT-A62V V75I F77C F116Y Q151M,121 µM
Nc1nc(N2CCOCC2)c2ncn(CCOCP(=O)(O)O)c2n1,IIIB,,cytopathic effect / MTT,CEM,EC50,,>20 µg/mL
CC(C)CN(C[C@@H](O)[C@H](Cc1cc(F)cc(F)c1)NC(=O)O[C@H]1CCO[C@H]2OCC[C@H]21)S(=O)(=O)c1ccc2nc(NC(C)C)sc2c1,LAI,,MTT,MT-2,EC50,,0.0001 µM
CNc1ccc(Cl)cc1S(=O)(=O)c1ccccc1[N+](=O)[O-],IIIB,,XTT,U-937,EC50,,0.2 µM
CSc1ccccc1NC(=O)CSc1nnnn1-c1ccccc1SC,NL4.3-XCS,,β-galactosidase,HeLa CD4,EC50,M184V (3TC-resistant),0.206 µM
O=c1[nH]cnc2c1ncn2[C@H]1CC[C@@H](CO)O1,AJ-05.93 (HXB2(RT-L74V)),,cytopathic effect,MT-4,EC50,RT-L74V,83.7 µM
CN[C@@H]1[C@H](O[C@@H]2OC[C@@H](O)[C@H](O)[C@H]2O)[C@@H](O)[C@H](O[C@H]2c3cc(C)c(C(=O)N[C@H](C)C(=O)O)c(O)c3-c3c(cc4c(c3O)C(=O)c3cc(OC)cc(O)c3C4=O)[C@@H]2O)O[C@@H]1C,BCF-DIOUM R5 CLADE G,,p24,PBMC,EC50,,2.2 µg/mL
CCc1cc(NCc2nc3c(C)ccc(C)c3o2)c(=O)[nH]c1C,A018A/H112-2,clinical isolate,p24,CEM,EC95,,0.025 µM
O=c1[nH]cnc2c1ncn2[C@H]1CC[C@@H](CO)O1,rA17,,p24,MT-4,EC95,,50 µM
N#CC1C=Cc2ccccc2C1C(=O)/C=C/c1ccccc1,NL4.3-XCS,,β-galactosidase,HeLa CD4,EC50,41-215 (AZT-resistant),0.239 µM
CN=C1CN=C(c2ccc[nH]2)c2cc(Cl)ccc2N1,IIIB,,cytopathic effect / MTT,CEM,EC50,,0.95 µM
CN(C)c1ncnc2c1ncn2CCOCP(=O)(O)O,IIIB,,cytopathic effect / MTT,CEM,EC50,,>100 µg/mL
Cc1cn([C@H]2C[C@H](N=[N+]=[N-])[C@@H](CO)O2)c(=O)[nH]c1=O,rA17,,p24,MT-4,EC95,,0.025 µM
CCC(C)Oc1cc(=O)[nH]c(Sc2cccc(C)c2)n1,IIIB,,cytopathic effect / MTT,MT-4,EC50,,35 µM
CN[C@H]1CO[C@@H]2OCC[C@H](OC(=O)N[C@@H](Cc3cccc(OC)c3)[C@H](O)CN(CC(C)C)S(=O)(=O)c3ccc4nc(NC(C)C)sc4c3)[C@@H]21,NL4-3,,p24 / luminescence,MT-4,EC50,L23I E34Q K43I M46I I50L G51A L63P A71V V82A T91A,0.0025 µM
O=c1[nH]cnc2c1ncn2[C@H]1CC[C@@H](CO)O1,AZT-resistant (RT M41L T215Y),,cytopathic effect,MT-4,EC50,RT-M41L T215Y,0.25 µM
Cc1ccnc2c1NC(=O)c1cccnc1N2C1CC1,,,,MT-4,EC95,RT-K70R K103N,3 µM
Nc1ccn([C@@H]2CO[C@H](CO)S2)c(=O)n1,IIIB,,p24,CEM,EC50,,0.4 µM
Cc1c(O)cccc1C(=O)N[C@@H](CSc1ccccc1)[C@H](O)CN1C[C@H]2CCCC[C@H]2C[C@H]1C(=O)NC(C)(C)C,NL4-3:IN7-3),,,MT-2,EC50,,0.02 µM
O=C1O[C@H]2[C@@H]3OC(=O)c4cc(O)c(O)c(O)c4-c4c(cc(O)c(O)c4O)C(=O)OC[C@H]2O[C@@H](OC(=O)c2cc(O)c(O)c(O)c2)[C@@H]3OC(=O)c2cc(O)c(O)c3c2[C@@H]2C1=CC(=O)[C@](O)(O3)C2(O)O,,,β-galactosidase,MAGI,EC50,,0.25 µM
O=c1[nH]cnc2c1ncn2[C@H]1CC[C@@H](CO)O1,NL4-3 WT,,p24,MT-4,EC50,,<6.5 µM
CC(C)=CCOc1cc(NC(=S)c2ccoc2C)ccc1Cl,IIIB,,syncytia,CEM,EC50,RT-E138K,0.0065 ± 0.0021 µM
CCCC(=O)O[C@H]1CN2CC[C@H](O)[C@@H]2[C@@H](O)[C@@H]1O,U455,,,H9,EC50,,<4 µM
CC(C)[C@H](NC(=O)c1ccc2ccccc2n1)C(=O)N[C@@H](Cc1ccccc1)[C@H](O)CN1CC[C@@H](OCc2ccncc2)C[C@H]1C(=O)NC(C)(C)C,AZT-resistant,,p24,C8166,EC50,,0.015 µM
CCCCSc1nc(N)cc(Cl)n1,IIIB,,cytopathic effect / MTT,MT-4,EC50,,65 µM
CC(C)(C)OC(=O)N[C@@H](Cc1ccccc1)[C@H](O)CNC[C@@H](O)[C@H](Cc1ccccc1)NC(=O)OC(C)(C)C,IIIB,,p24,PBMC,EC50,,0.025 µM
COc1ccc(NC(=O)CSc2nnnn2-c2c(C)cc(C)cc2C)cc1Cl,NL4-3,,β-galactosidase,HeLa CD4,EC50,WT,0.418 µM
CCCCSc1cc(N)nc(Cl)n1,IIIB,,cytopathic effect / MTT,MT-4,EC50,,>114 µM

6 of the rows above, restated:

SMILES | strain | setting | read by | cells | endpoint | changes | result
O=C1O[C@H]2[C@@H]3OC(=O)c4cc(O)c(O)c(O)c4-c4c(cc(O)c(O)c4O)C(=O)OC[C@H]2O[C@@H](OC(=O)c2cc(O)c(O)c(O)c2)[C@@H]3OC(=O)c2cc(O)c(O)c3c2[C@@H]2C1=CC(=O)[C@](O)(O3)C2(O)O |  |  | β-galactosidase | MAGI | EC50 |  | 0.25 µM
CN(C)c1ncnc2c1ncn2CCOCP(=O)(O)O | IIIB |  | cytopathic effect / MTT | CEM | EC50 |  | >100 µg/mL
Cc1cn([C@H]2C[C@H](F)[C@@H](CO)O2)c(=O)[nH]c1=O | 121-2(PRE-AZT) |  | RT activity | MT-4 | EC50 |  | 0.005 µM
CO[P@](=O)(c1cc(C)cc(/C=C/C#N)c1)c1c(C(N)=O)[nH]c2ccc(Cl)c(F)c12 | BH10 |  |  | MT-2 | EC50 |  | 0.0009 µM
CCc1cc(NCc2nc3c(C)ccc(C)c3o2)c(=O)[nH]c1C | rHXB2 |  | p24 | MT-4 | EC95 |  | 0.05 µM
Cc1ccnc2c1NC(=O)c1cccnc1N2C1CC1 | IIIB |  | syncytia | CEM | EC50 | RT-V106A | ≥5 µM

ECn is the concentration giving n% inhibition of infection, replication or growth. Blank or dashed fields: not listed here.